PubChem BioAssay AID504761 – Drosophila RNAi Screening Center – 2011
Test: 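Insect host genes that dengue virus relies on to spread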 (primary screen). System: D.Mel-2 cells from Drosophila. Reagents: long dsRNA against Drosophila genes. Treatment: infection with dengue virus type 2; dose and infection time not stated. Detection: 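Per well on two replicate plates, imaging gave the percent of cells positive for viral envelope protein, ranked by infection, and a nuclear count of cells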. Direction: infection score: higher = more virus-infected cells; cell count: higher = more cells in the well. Call rule: 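Very low infection ranking in both replicate wells (chance probability at most 0.065), then a retest showing infection dropped 1.5-fold or more at p below 0.05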. Meaning of the calls: active = confirmed: knock-down lowers infection; inactive = not picked or not confirmed.
In all, the deposit lists about 22,000 reagents; this is a random part of those that have a named target and a result. In the full data, 116 (0.52%) got an active call. 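Calls depend on retest data that are not deposited; infection was ranked per plate without normalising between plates; the unit of the infection score is not given.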 The raw values are shown without normalisation. The record does not give: the amount of reagent, the time to read-out.

no.	gene	dsRNA	infection score, replicate 1	infection score, replicate 2	cell count, replicate 1	cell count, replicate 2	activity call
1	CG17321	DRSC02598	8.02	4.27	5501	6606	inactive
2	CG17321	DRSC25649	2.71	4.29	6093	6102	inactive
3	stan (starry night)	DRSC05234	2.09	2.52	5414	5192	inactive
4	stan (starry night)	DRSC07697	13.4	9.16	6290	6979	inactive
5	CG9184	DRSC08636	4.39	2.39	7327	7583	inactive
6	CG9184	DRSC22184	0.94	0.49	6986	6477	inactive
7	CG9184	DRSC23765	6.06	12.4	6735	5918	inactive
8	Ip259 (Intronic Protein 259)	DRSC03352	11.2	3.4	5157	5624	inactive
9	sif (still life)	DRSC08759	0.84	1.36	5596	4191	inactive
10	sif (still life)	DRSC11395	0.3	2.15	6261	5678	inactive
11	sif (still life)	DRSC22065	7.53	11.1	6344	6022	inactive
12	sif (still life)	DRSC22828	0.32	2.64	6796	6700	inactive
13	sif (still life)	DRSC26730	14.4	10.6	6444	6635	inactive
14	FoxL1 (Forkhead box L1)	DRSC08717	2.12	3.83	6378	6297	inactive
15	FoxL1 (Forkhead box L1)	DRSC25265	4.36	2.62	6152	6039	inactive
16	GlcAT-S (Glucuronyltransferase S)	DRSC02731	6.16	3.72	6254	6125	inactive
17	GlcAT-S (Glucuronyltransferase S)	DRSC27771	1.82	5.43	6873	6653	inactive
18	elg1 (enhanced level of genomic instability 1)	DRSC10229	6.39	7.67	6289	6424	inactive
19	elg1 (enhanced level of genomic instability 1)	DRSC27844	13.2	30.4	5428	4097	inactive
20	CG10674	DRSC09775	4.69	1.57	5926	5910	inactive
21	Ube4B (Ubiquitination factor E4B)	DRSC03277	14.9	8.7	6162	6494	inactive
22	CG12995	DRSC19515	14.9	2.22	1550	6387	inactive
23	CG12995	DRSC27519	2.91	2.83	5877	6936	inactive
24	wrm1 (wurmchen 1)	DRSC11007	6.85	5.98	5768	6035	inactive
25	wrm1 (wurmchen 1)	DRSC24006	4.78	8.99	6297	4741	inactive
26	Sodq (Sodesque)	DRSC15924	1.47		6736	313	inactive
27	Sodq (Sodesque)	DRSC27755	32.4	22.5	4962	5274	inactive
28	mRpS31 (mitochondrial ribosomal protein S31)	DRSC10556	14.2	13.2	5645	5764	inactive
29	CG7730	DRSC10909	2.47	9.66	6638	7184	inactive
30	CG8001	DRSC08611	13	14.5	5472	2620	inactive
31	ATPsynGL (ATP synthase, subunit G-like)	DRSC03027	3.66	1.46	5896	6796	inactive
32	ATPsynGL (ATP synthase, subunit G-like)	DRSC28550	17.5	13.5	5286	5089	inactive
33	Pcp (Pupal cuticle protein)	DRSC03395	7.09	8.41	6429	2807	inactive
34	anchor	DRSC10861	12.8	11.8	5340	4253	inactive
35	Cpsf6 (Cleavage and polyadenylation specific factor 6)	DRSC10781	3.96	1.53	5584	5740	inactive
36	Gabat (gamma-aminobutyric acid transaminase)	DRSC10846	4.33	4.75	6212	6801	inactive
37	CG31522	DRSC12005	2.3	3.32	5868	6151	inactive
38	CG31522	DRSC29792	11.8	4.92	6456	6214	inactive
39	CG6462	DRSC10641	0.7	6.56	6590	5880	inactive
40	CG6462	DRSC24608	6.83	5.3	5564	2339	inactive

Individual results from the entries so far.
For “infection score, replicate 1”, Cpsf6 (Cleavage and polyadenylation specific factor 6) [DRSC10781] shows 3.96
Under “cell count, replicate 2”, sif (still life) [DRSC22065] has 6022
ATPsynGL (ATP synthase, subunit G-like) [DRSC03027], activity call = inactive
Entry for Pcp (Pupal cuticle protein) [DRSC03395] in “cell count, replicate 1”: 6429
For “infection score, replicate 1”, CG12995 [DRSC27519] shows 2.91
CG9184 [DRSC08636], infection score, replicate 2 → 2.39
